Compound potency records, mixed from different reports. Data source: NIAID ChemDB in PubChem.

All rows: tests in culture; organism: HIV-1; method: cytopathic effect / XTT; endpoint: inhibition

a–b is a range or a potency band. An empty or dashed field is not shown. Rows are shuffled and stem from different studies. Percent inhibition refers to the dose given; in toxicity tests it is the harm to the cells.

structure	strain	cell line	tested at	result
Nc1nc(N)c2ncn([C@@H]3O[C@H](CO)C[C@@H]3F)c2n1	LAI	ATH-8 + ATH8	1 µM	23%
NC1=NNC2(C(=O)N1)c1ccccc1-c1ccccc12	-	CEM	200 µM	17%
NC1=NNC2(C(N)=N1)c1ccccc1-c1ccccc12	RF	CEM	20 µM	17.87%
O=C1CSC2=NC(=O)C3(NN12)c1ccccc1-c1ccccc13	-	CEM	63 µM	24.42%
O=C(O)CSC1=NNC2(C(=O)N1)c1ccccc1-c1ccccc12	RF	CEM	63 µM	21.96%
CC1=NN2C(=N)CC(=O)N=C2N=C1/C=C/c1ccc(N(C)C)cc1	-	CEM	0.634 µM	6.7%
CC(=O)N1C(=O)[C@@H](Cc2ccccc2)NC1=S	-	MT-4	0.1 µg/mL	6%
Cc1nnc(N)nc1/C=C/c1ccc(N(C)C)cc1	-	CEM	0.6 µM	3.38%
CCc1nnc(NC(=O)NCCc2ccccc2)s1	-	MT-4	1 µg/mL	0%
Cc1cn([C@H]2C[C@H](O)[C@@H](COC(=O)CCCCCCCCCCN=[N+]=[N-])O2)c(=O)[nH]c1=O	-	CEM	2 µM	6.5%
S=C1NNC2(C(=S)N1)c1ccccc1-c1ccccc12	-	CEM	0.63 µM	10.22%
S=C1NNC2(C(=S)N1)c1ccccc1-c1ccccc12	RF	CEM	0.63 µM	10.22%
Nc1nc2c(ncn2[C@@H]2O[C@H](CO)C[C@@H]2F)c(=O)[nH]1	LAI	ATH-8 + ATH8	100 µM	66%
O=C(NCCc1ccccc1)Nc1nc2ccc(F)cc2s1	-	MT-4	100 µg/mL	72–100%
O=C1NC(SC(SC2=NNC3(C(=O)N2)c2ccccc2-c2ccccc23)=C(SC2=NNC3(C(=O)N2)c2ccccc2-c2ccccc23)SC2=NNC3(C(=O)N2)c2ccccc2-c2ccccc23)=NNC12c1ccccc1-c1ccccc12	-	CEM	63 µM	37.76%
Cc1cn([C@H]2C[C@H](O)[C@@H](COC(=O)CCCCCCCCCCBr)O2)c(=O)[nH]c1=O	-	CEM	52 µM	8.6%
S=C1N=C(Cl)C2(NN1)c1ccccc1-c1ccccc12	RF	CEM	20 µM	32.82%
CCCCN1C(=O)[C@@H](Cc2ccccc2)NC1=S	-	MT-4	100 µg/mL	100%
O=C(Cc1ccccc1)Nn1c(-c2ccccc2)nc2ccccc2c1=O	RF	CEM + CEM-SS	63 µM	59%
O=C(NCCc1ccccc1)Nc1nc(-c2ccc(Br)cc2)cs1	-	MT-4	100 µg/mL	30%
CC(=O)N1C(=O)CC(=O)N(c2nnc(C)c(/C=C/c3ccc(N(C)C)cc3)n2)C1=S	-	CEM	0.1 µM	3.99%
C=CC[C@H](NC(=O)[C@H](Cc1ccccc1)NS(=O)(=O)N1CCOCC1)C(=O)N[C@@H](CC1CCCCC1)[C@@H](O)C[C@H](C(=O)NCCCC)C(C)C	IIIB	CEM	4.3 µM	97%
O=C(NCCc1ccccc1)Nc1ccccn1	-	MT-4	10 µg/mL	2%
CCCCCCCCCCCCC(Br)C(=O)OC[C@H]1O[C@@H](n2cc(C)c(=O)[nH]c2=O)CC1O	-	CEM	2 µM	22.2%
C=CCNC(=O)NC1=CSC2=NC(=O)C3(NN12)c1ccccc1-c1ccccc13	-	CEM	63 µM	16.15%
NS(=O)(=O)c1ccc(NC(=O)NCCc2ccccc2)cc1	-	MT-4	0.1 µg/mL	3%
O=C1N=C2SC=C(NC(=S)Nc3ccccc3)N2NC12c1ccccc1-c1ccccc12	-	CEM	20 µM	36.36%
O=C(NCCc1ccccc1)Nc1cncc(Cl)n1	-	MT-4	100 µg/mL	38–100%
O=C1N=C2SC=C(NC(=S)Nc3ccccc3)N2NC12c1ccccc1-c1ccccc12	RF	CEM	20 µM	36.63%

3 of the rows above, restated:

structure | strain | cell line | tested at | result
O=C1N=C2SC=C(NC(=S)Nc3ccccc3)N2NC12c1ccccc1-c1ccccc12 | - | CEM | 20 µM | 36.36%
CC(=O)N1C(=O)CC(=O)N(c2nnc(C)c(/C=C/c3ccc(N(C)C)cc3)n2)C1=S | - | CEM | 0.1 µM | 3.99%
CCCCCCCCCCCCC(Br)C(=O)OC[C@H]1O[C@@H](n2cc(C)c(=O)[nH]c2=O)CC1O | - | CEM | 2 µM | 22.2%